pIC50: −log10 of the molar value.
Target: NA (neuraminidase) of A/Yamagata/103/2024 (Influenza A virus, UniProt C3W5S3)
Format: biochemical

CC(=O)N[C@H]1[C@H]([C@H](O)[C@H](O)CO)OC(C(=O)O)=C[C@@H]1N=C(N)N [Zanamivir, zanamivir]
pIC50: 9.37

— article PMC12044245 (Emerging Infectious Diseases, 2025)
